Drawing on paper PMC10491346, “Enzyme Mechanistic Studies of NMA1982, a Protein Tyrosine Phosphatase and Potential Virulence Factor in Neisseria meningitidis” (Research Square, 2023), this text covers Km, kcat and kcat/Km for three substances.

The Km is the concentration of substrate that gives half-maximal velocity. A word on the kcat: it is the number of substrate molecules converted per active site and unit of time at saturation. The term kcat/Km denotes the second-order rate constant that governs catalysis at low substrate concentration.

The subject of the series is Cc1cc(=O)oc2c(F)c(OP(=O)(O)O)c(F)cc12. The series can be described thus: purified protein. The settings on record: 50 mM Bis-Tris pH 6.0, 1.7 mM DTT, 0.005% Tween-20, room temperature.
“NMA1982 (Neisseria meningitidis FAM18; D84A)”: the Km came to 40 µM, the kcat was 2.7e-05 s⁻¹ and the kcat/Km came to 0.69 M⁻¹ s⁻¹.

In the case of “NMA1982 (Neisseria meningitidis FAM18; D84A/R149A)”, the Michaelis-Menten constant (Km) came out at 33 µM, the kcat came to 0.00011 s⁻¹ and the kcat/Km was determined as 3.28 M⁻¹ s⁻¹.

For the substance “NMA1982 (Neisseria meningitidis FAM18; R149A)”, the Km worked out at 28 µM, the kcat was determined as 0.00026 s⁻¹ and the kcat/Km worked out at 9.28 M⁻¹ s⁻¹.
